Measured values from several laboratories, pooled; numbers as filed in NIAID ChemDB.

Common to all: tests on isolated targets; agent: Hepatitis C virus; target: NS5B polymerase

An empty or dashed field is not shown.

{"structure": "Cc1oc2ccc(OCc3ccccc3)cc2c1-c1ccc2cc(-c3nc4cc(C(=O)O)ccc4n3C3CCCCC3)ccc2n1", "dose": "100 µM", "measure": "inhibition", "result": "96.03%"}
{"structure": "CC1=C(c2nc3cc(C(=O)N[C@@H](Cc4c[nH]c5ccc(O)cc45)C(=O)O)ccc3n2C2CCCCC2)CN=N1", "measure": "IC50", "result": "<1 µM"}
{"structure": "CCSc1nc(Nc2ccc(N(CC)CC)cc2)cc(N2CCN(C(=O)c3ncc(C)cn3)CC2)n1", "dose": "0.1 µg/mL", "measure": "inhibition", "result": "30–55%"}
{"structure": "Cc1cc(-c2nc3cc(C(=O)O)ccc3n2C2CCCCC2)cc2ccc(-c3ccccc3)nc12", "dose": "100 µM", "measure": "inhibition", "result": "99.28%"}
{"structure": "O=C(N[C@H](Cc1ccc(O)cc1)C(=O)O)c1ccc2c(c1)nc(-c1ccoc1)n2C1CCCCC1", "measure": "IC50", "result": "1–5 µM"}
{"structure": "O=C(O)/C=C/c1ccc(NC(=O)C2(NC(=O)c3ccc4c(c3)nc(-c3ccccc3)n4C3C[C@H]4CC[C@@H]3C4)CCCC2)cc1", "measure": "IC50", "result": "0.5–5 µM"}
{"structure": "CCC[C@]1(CC(=O)O)OCCc2c1[nH]c1c(C)ccc(C#N)c21", "measure": "IC50", "strain or isolate": "320-2-1 genotype 1B", "result": "0.5 µM"}
{"structure": "Cc1cnc(-c2nc3cc(C(=O)N[C@H](C(=O)O)c4c[nH]c5ccc(O)cc45)ccc3n2C2CCCCC2)cn1", "measure": "IC50", "result": "<1 µM"}
{"structure": "CCN1CCC(NC(=O)c2ccc3c(c2)nc(-c2ccoc2)n3C2CCCCC2)(C(=O)Nc2ccc(-c3nc(C(=O)O)cs3)cc2)CC1", "measure": "IC50", "result": "<0.5 µM"}
{"structure": "CCCCOC(=O)c1ccc(CCCC)nc1Nc1ccc(N2CCOCC2)cc1", "dose": "0.1 µg/mL", "measure": "inhibition", "result": "30–55%"}
{"structure": "O=C(N[C@H](C(=O)O)c1c[nH]c2ccc(O)cc12)c1ccc2c(c1)nc(-c1ccc(=O)[nH]c1)n2C1CCCCC1", "measure": "IC50", "result": "<1 µM"}
{"structure": "CCCCc1ccc(C(=O)O)c(Nc2ccc(N3CCNCC3)cc2)n1", "dose": "0.1 µg/mL", "measure": "inhibition", "result": "30–55%"}
{"structure": "C[C@@H]1CCCC[C@H]1n1c(-c2ccco2)nc2cc(C(=O)NC3(C(=O)Nc4ccc(/C=C/C(=O)O)cc4)CCCC3)ccc21", "measure": "IC50", "result": "0.5–5 µM"}
{"structure": "Cn1cc([C@H](NC(=O)c2ccc3c(c2)nc(-c2ccoc2)n3C2CCCCC2)C(N)=O)c2cc(OC(C)(C)C(=O)O)ccc21", "measure": "IC50", "result": "1–5 µM"}
{"structure": "CC(NC(=O)c1ccc2c(c1)nc(-c1ccoc1)n2C1CCCCC1)C(=O)Nc1cccc(C(=O)O)c1", "measure": "IC50", "result": "0.5–5 µM"}
{"structure": "COc1ccc([C@@H](NC(=O)c2ccc3c(c2)nc(-c2ccccn2)n3C2CCCCC2)C(=O)O)cc1", "measure": "IC50", "result": "1–5 µM"}
{"structure": "COc1ccc(-c2ccc(CN)cc2)c(-c2ccc3cc(-c4nc5cc(C(=O)O)ccc5n4C4CCCCC4)ccc3n2)c1", "dose": "100 µM", "measure": "inhibition", "result": "99.26%"}
{"structure": "C[C@@H]1CCCC[C@H]1n1c(-c2ccccn2)nc2cc(C(=O)NC3(C(=O)Nc4ccc(/C=C/C(=O)O)cc4)CCCC3)ccc21", "measure": "IC50", "result": "0.5–5 µM"}
{"structure": "O=C1COc2ccc(-c3ccc4cc(-c5nc6cc(C(=O)O)ccc6n5C5CCCCC5)ccc4n3)cc2N1", "dose": "100 µM", "measure": "inhibition", "result": "101%"}
{"structure": "CCN1CCC(NC(=O)c2ccc3c(c2)nc(-c2ccoc2)n3C2CCCCC2)(C(=O)Nc2ccc(-c3nc(C(N)=O)cs3)cc2)CC1", "measure": "IC50", "result": "<0.5 µM"}
{"structure": "O=C(N[C@H](C(=O)O)c1c[nH]c2ccc(O)cc12)c1ccc2c(c1)nc(-c1ccno1)n2C1CCCCC1", "measure": "IC50", "result": "1–5 µM"}
{"structure": "O=C(O)/C=C/c1ccc(NC(=O)C2(NC(=O)c3ccc4c(c3)nc(-c3ccccc3)n4C3CCCCC3)CCCC2)cc1", "measure": "IC50", "result": "0.5–5 µM"}
{"structure": "COC(=O)[C@H](Cc1c[nH]c2ccc(O)cc12)NC(=O)c1ccc2c(c1)nc(-c1ccoc1)n2C1CCCCC1", "measure": "IC50", "result": "<1 µM"}
{"structure": "O=C(O)/C=C/c1ccc(NC(=O)C2(NC(=O)c3ccc4c(c3)nc(-c3cccc5c3OCO5)n4C3C[C@H]4CC[C@@H]3C4)CCCC2)cc1", "measure": "IC50", "result": "0.5–5 µM"}
{"structure": "CCCCOC(=O)c1ccc(CCCC)nc1N(C)c1ccc(N2CCOCC2)cc1", "dose": "0.1 µg/mL", "measure": "inhibition", "result": "30–55%"}

The last 2 rows once more:

structure,dose,measure,strain or isolate,result
O=C(O)/C=C/c1ccc(NC(=O)C2(NC(=O)c3ccc4c(c3)nc(-c3cccc5c3OCO5)n4C3C[C@H]4CC[C@@H]3C4)CCCC2)cc1,,IC50,,0.5–5 µM
CCCCOC(=O)c1ccc(CCCC)nc1N(C)c1ccc(N2CCOCC2)cc1,0.1 µg/mL,inhibition,,30–55%

ICn is the concentration giving n% inhibition. Percent inhibition refers to the dose given; in toxicity tests it is the harm to the cells. Lines come from different laboratories, so protocols vary. a–b is a range or a potency band.